## Primary screen of a compound library

Mtb glucose medium: 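Growth of Mycobacterium tuberculosis over 3 days (7H9 medium with glucose and tyloxapol); the read-out is not stated. Concentration: 50 µM. Direction is inferred from retests: higher values go with more growth inhibition. About 69,000 compounds were tested under these conditions; 1.1% (about 760) showed 50% or more at least once.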
Mtb cholesterol medium: 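Growth of Mycobacterium tuberculosis over 4 days (cholesterol / DPPC medium with tyloxapol); the read-out is not stated. Tested at 50 µM. The record gives no direction; compounds that gave an IC50 in retests scored well above the rest, so higher reads as more growth inhibition. About 69,000 compounds were tested under these conditions; 0.54% (about 370) showed 50% or more at least once.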

The filed quantity is “Percent Effect” (%).
The controls that fix the scale are not given in the record; negative values are as filed.
The entries come from a sample that favours strong results.
Two or more numbers in one place are separate tests of the same structure; such repeats can differ widely.
A dash means the value is not listed here; it may have been measured.

{"smiles": "O=C(c1cn(-c2ccccc2)nn1)N1CCCC(n2cccn2)C1", "stereo": "centres unmarked", "Mtb cholesterol medium": -18.2}
{"smiles": "CC(C)n1ccc(C(=O)OCC2CC(=O)N(Cc3ccccc3)C2)n1", "stereo": "centres unmarked", "Mtb glucose medium": 13.34, "Mtb cholesterol medium": 8.87}
{"smiles": "CC(C)(C)c1cnc(CN2C(=O)CC3(CCSC3)C2=O)o1", "stereo": "centres unmarked", "Mtb glucose medium": "21.05 and 40.41"}
{"smiles": "Cc1ccc(NCc2ncc(C(C)(C)C)o2)c(Cl)c1", "Mtb glucose medium": "50.45 and 31.61"}
{"smiles": "Cc1ccc(NC2CCCN(Cc3ccc(Cl)cc3)C2)nn1", "stereo": "centres unmarked", "Mtb glucose medium": 66.25, "Mtb cholesterol medium": "64.21 and 80.04"}
{"smiles": "COc1ccc(C(=O)Nc2c(C(=O)N(C)C)nn(C)c2C)cc1", "Mtb cholesterol medium": -10.18}
{"smiles": "CC(C)c1nc(CC(=O)Nc2nc(CN3CCCCCC3)cs2)cs1", "Mtb glucose medium": 72.81}
{"smiles": "Cc1csc(CN(C)c2cc(C)nc3c(C)c(C)nn23)n1", "Mtb glucose medium": "58.07 and 65.34", "Mtb cholesterol medium": 38.19}
{"smiles": "O=C(O)[C@@H]1CN(C(=O)CSCC2CC2)C[C@H]1c1ccccn1", "Mtb cholesterol medium": "-16.19 and -9.267"}
{"smiles": "CC(C)(C)c1ccc(-n2ncc3c2CCCC3N)cc1", "stereo": "centres unmarked", "Mtb glucose medium": 52.98}
{"smiles": "COc1ccc(NC(C)C(=O)N2CCCC2)cn1", "stereo": "centres unmarked", "Mtb glucose medium": "-63.51 and -22.18", "Mtb cholesterol medium": -16.05}
{"smiles": "CN(C)c1ccc(C(=O)N2CCCC2c2ccc(Cl)cc2)nn1", "stereo": "centres unmarked", "Mtb glucose medium": "101.4 and -6.403"}
{"smiles": "Cc1nc(CN2C(=O)CCC23CCN(Cc2cccn2C)CC3)cs1.O=C(O)C(F)(F)F.O=C(O)C(F)(F)F", "Mtb glucose medium": 1.482}
{"smiles": "CC(C)Oc1ncnc2c1CCN(Cc1ccco1)CC2.O=C(O)C(F)(F)F", "Mtb glucose medium": "2.151 and -0.03843", "Mtb cholesterol medium": -2.514}
{"smiles": "CN(C)S(=O)(=O)c1ccc(F)c(NC(=O)COCC2CC2)c1", "Mtb glucose medium": "48.72 and 47.33"}
{"smiles": "Cl.Clc1ccccc1CN1CCc2nc(C3CCCNC3)ncc2C1", "stereo": "centres unmarked", "Mtb glucose medium": 52.52}
{"smiles": "O=C(c1cc(C2CC2)[nH]n1)N1CCN(Cc2ccc3c(c2)OCO3)CC1", "Mtb glucose medium": "66.25 and 88.71", "Mtb cholesterol medium": 68.4}
{"smiles": "CN(C)c1ccc(-c2noc([C@@H]3CCCN3)n2)cn1", "Mtb glucose medium": "-28.65 and -4.226"}
{"smiles": "NC1CCN(C2CCN(c3ccc(-c4ccco4)cc3)CC2)CC1", "Mtb glucose medium": "22.63 and 43.41"}
{"smiles": "Cc1cc(CS(=O)(=O)NC2CCCCC2)on1", "Mtb cholesterol medium": -8.007}
{"smiles": "COCCNC(=O)NCc1ccc(OC(C)C)c(F)c1", "Mtb glucose medium": 9.403, "Mtb cholesterol medium": 6.021}
{"smiles": "[H][C@]12CCCCN1CCC[C@H]2CN(C)Cc1nnc(CC)o1", "Mtb glucose medium": 33.66}
{"smiles": "COc1cn(-c2ccccc2)nc1C(=O)NCCN1CCCC(C)C1", "stereo": "centres unmarked", "Mtb glucose medium": 15.59, "Mtb cholesterol medium": 5.927}
{"smiles": "CNC(=O)C(C)CN(C)C(=O)Nc1cc(F)cc(Br)c1", "stereo": "centres unmarked", "Mtb glucose medium": "12.06 and 1.783", "Mtb cholesterol medium": -16.87}
{"smiles": "CCc1noc(CN2CCC(c3ccnn3CCO)CC2)n1", "Mtb glucose medium": 20.63}
{"smiles": "Cc1cccc2c1cnn2CCCNC(=O)C1CC1", "Mtb glucose medium": 12.17, "Mtb cholesterol medium": 1.956}
{"smiles": "Cn1nnc(NCc2ccc(-c3ccc(Br)cc3)o2)n1", "Mtb glucose medium": "73.92 and 13.45"}
{"smiles": "CCN(CC)CCc1nc2c([nH]1)CC(c1ccc(Cl)cc1)CNC2=O", "stereo": "centres unmarked", "Mtb cholesterol medium": -2.004}
{"smiles": "COc1cccc(N2CCC(CNCc3cccc(C#N)c3)C2)c1", "stereo": "centres unmarked", "Mtb glucose medium": "14.9 and 42.86", "Mtb cholesterol medium": 16.33}
{"smiles": "Cc1ccc(CNC(CN2CCN(C)CC2)c2ccccc2)cc1", "stereo": "centres unmarked", "Mtb glucose medium": 29.58}
{"smiles": "CCOC(=O)CNC(=O)NCc1cc(C)n(-c2ccccc2OC)c1C", "Mtb glucose medium": -15.41}
{"smiles": "O=C(Nc1cccnc1)C1=Cc2ccccc2OC1", "Mtb glucose medium": "16.26 and -8.468"}
{"smiles": "CCCN1CCC(CC(=O)N2CC(C)(C)[C@@](C)(O)C2)CC1", "Mtb glucose medium": 40.27}
{"smiles": "O=C1Nc2ccccc2NC12CCN(c1cccc(C(F)(F)F)n1)CC2", "Mtb cholesterol medium": 114.6}
{"smiles": "Cl.Fc1ccc(Cc2cnc(C3CCCN3)cn2)cc1", "stereo": "centres unmarked", "Mtb glucose medium": -7.778, "Mtb cholesterol medium": -15.75}
{"smiles": "Cc1cnc2c(S(=O)(=O)NC3CCS(=O)(=O)C3)cccc2c1", "stereo": "centres unmarked", "Mtb glucose medium": 21.71}
{"smiles": "CCc1nc(C2CCCN2c2ncc(C(F)(F)F)cc2Cl)no1", "stereo": "centres unmarked", "Mtb glucose medium": "26.74 and 29.88", "Mtb cholesterol medium": 32.37}
{"smiles": "CCOCCNc1nc(-c2ccncc2)nc2c1CCNCC2", "Mtb glucose medium": "-12.9 and 1.537"}
{"smiles": "NC(=O)c1cnc(NC2CCN(c3ccccc3)CC2)c(Cl)c1", "Mtb glucose medium": "14.98 and 2.085", "Mtb cholesterol medium": -3.351}
{"smiles": "Cc1cc(C(=O)NCCCn2nccc2C2CC2)c(=O)[nH]c1C", "Mtb cholesterol medium": "-9.475 and -5.55"}
{"smiles": "O=C(Cc1cccs1)N1CC(c2nc(-c3cnccn3)no2)C1", "Mtb glucose medium": "-0.5947 and -14.13"}
{"smiles": "CCS(=O)(=O)c1ccc2c(c1)OCCCO2", "Mtb glucose medium": -16.16, "Mtb cholesterol medium": -0.3374}

2 of the entries, repeated:

| SMILES | Mtb glucose medium | Mtb cholesterol medium |
|---|---|---|
| `CCCN1CCC(CC(=O)N2CC(C)(C)[C@@](C)(O)C2)CC1` | 40.27 | - |
| `Cc1csc(CN(C)c2cc(C)nc3c(C)c(C)nn23)n1` | 58.07 and 65.34 | 38.19 |

Source: ChEMBL document CHEMBL3988442, “University of Dundee, Small-Polar-MMV Screening Library” (2021).